## Percent effect of library compounds

Results are given as percent effect.
How 0% and 100% were set is not recorded. Most values in the screen are low, and negative values occur.
Many other results are left out here, so strong results are more common than in the screen.
Two or more numbers in one place are separate tests of the same structure; such repeats can differ widely.

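Phenotypic screen: M. tuberculosis growth, glucose 7H9 medium, 3 days; the read-out is not stated. Compounds at 50 µM. Higher reads as more growth inhibition (inferred: compounds with an IC50 in retests scored well above the rest). Of about 69,000 compounds tested this way, about 760 (1.1%) reached 50% or more in at least one test.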

structure | effect
COc1cccc(CNC(C)Cn2cccn2)c1OC.Cl (stereo not drawn) | 33.73%
O=C(NCc1csc(Br)c1)c1cnccn1 | 35.34%
NC(=O)CSCC(=O)N1CCc2cc(Cl)cc(Cl)c2C1 | 45.49%
COCc1nc(N(C)C)ncc1C(=O)Nc1ccc(Cl)cc1 | 3.728%
c1ccc2nc(N3CCOC(Cn4cncn4)C3)cnc2c1 (stereo not drawn) | -9.949%
O=C(NCCNC(=O)c1ccc(Cl)cc1)NCCn1cccc1 | 26.52%
Cc1cc(Cc2ccc(F)cc2)cc(C2CCCNC2)n1 (stereo not drawn) | 12.07%
COCCCC1CCCCN1S(=O)(=O)c1cccc(C#N)c1 (stereo not drawn) | -18.7%
CS(=O)(=O)C1CCN(S(=O)(=O)c2ccc(F)c(F)c2)C1 (stereo not drawn) | 33.79%
CN(Cc1cnn(C)c1)C(=O)c1cc2ccccc2c(=O)[nH]1 | -8.918%
Cc1cc(NC(=O)NCc2nncn2C)ccc1OC(C)C | -27.17%
CCNC(=O)NCCc1csc(N2CCCC2)n1 | -12.44%
CC1CCCN(c2ccc(C(N)=O)cc2NC(=O)CC2=CCNCC2)C1 (stereo not drawn) | 56.22%
COCC(=O)NCC(Cc1cccc(F)c1)n1cccc1 (stereo not drawn) | 29.84% and 19.37%
CC(C)c1ccc(O)c(C(=O)NC2CCN(c3ncccn3)CC2)c1 | 56.77% and 51.15%
Cc1nn(C)c(C)c1C1CCCN1C(=O)c1ccc(N(C)C)nn1 (stereo not drawn) | 4.675%
[H][C@@]12CCC(=O)N(CCc3ccc(C)o3)[C@]1([H])CCN(Cc1cnn(C)c1)C2 | 13.3%
O=C(O)c1cc(-c2ccc3c(c2)OCO3)cc(S(=O)(=O)NC2CC2)c1 | -0.18%
CC(C)c1ccc(OCn2ccc(C(=O)N3CCCC3)n2)cc1 | 54.95%
OCc1cc2ccccc2nc1N1CCCCC1 | -13.24%
CCCc1nc(N2CCCCC2)c2c(n1)c(C)nn2CC | 37.3% and 28.66%
Cc1cnc(N2CCCC3(COCCN(c4ccc(C)nn4)C3)C2)nc1 (stereo not drawn) | 15.16%
O=C(NCCn1ccnc1)c1ccn(-c2ccccc2)n1 | -16.45%
CN(Cc1nnc(-c2cccs2)o1)C(C(N)=O)c1cccc(F)c1 (stereo not drawn) | -9.696%
CN1CCN(c2ccccc2NC(=O)c2ccco2)CC1 | 39.54%
COc1ccc(C(C)NCCC(N)=O)cc1F (stereo not drawn) | -6.949%
COc1cc(NCC(=O)NC(C)(C#N)C(C)C)cc(OC)c1OC (stereo not drawn) | -12.55%
CCS(=O)(=O)c1ccc2c(c1)OCCO2 | -9.839%
Cc1ccc(S(=O)(=O)N2CCOc3ccccc32)cc1C(N)=O | -26.08%
O=C(Cc1ccsc1)N1CCC(c2ccncc2)CC1 | -18.72%
Cc1nc(CCN2CCC(Oc3ccccc3F)CC2)c(C)s1 | 14.93%
CCCS(=O)(=O)NCC(C)c1ccc(F)c(F)c1 (stereo not drawn) | 18.35% and 14.48%
C[C@@H]1CN(c2nc3c(cc2C(N)=O)CCC3)CC[C@@]1(O)C1CCC1 | 55.04% and 15.83%
O=C(COCc1nc(-c2ccncc2)no1)N1CCCCC1 | 35.85%
O=C1CCNc2ncc(-c3ccc(Cl)cc3)cc2CN1C1CC1 | 33.67%
Cc1ccc(CN2CCOC3(CCN(C(=O)C4CCOC4)CC3)C2)cc1.O=C(O)C(F)(F)F (stereo not drawn) | 9.782% and 8.955%
Cc1nc(-c2cccc(N3CCC(N4CCCC(C#N)C4)CC3)c2)cs1 (stereo not drawn) | -32.62%
Cc1csc(N2CCN(C(=O)c3ccc(C)s3)CC2)n1 | 76.71%
CC(C)Cc1cc(NC(=O)c2ccccn2)n(C)n1 | 57.67%
CC(Nc1ccc(Br)cc1)c1nc(C2CC2)no1 (stereo not drawn) | 52.28%
CC(CO)NS(=O)(=O)c1cccc(C(C)C)c1 (stereo not drawn) | 18.84% and 5.916%
Cn1ccnc1-c1ccc(NCC2COc3ccccc3O2)nn1 (stereo not drawn) | 54.07%
Cc1cc(N(C)Cc2noc(C)n2)n2nc(C)c(C)c2n1 | 6.224% and -5.966%
O=C(c1cnccn1)N(CCO)Cc1cc(Br)ccc1F | 2.991% and 8.406%
CN1CCN(CC(NCc2ccc(F)c(F)c2)c2ccccc2)CC1 (stereo not drawn) | 62.68%
CCOCCCn1c(NC(=O)c2scnc2C)nc2ccccc21 | 54.96%
COc1cccc(Nc2nc(-c3ccncc3)nc3c2CNCC3)c1.Cl | 7.183%
c1cc(CN(CCCn2ccnc2)Cc2ccoc2)ccn1 | 7.484%
c1cnc(N2CCCC(c3cncc(-n4ccnc4)n3)C2)nc1 (stereo not drawn) | 17.18%
NCCC1CN(c2nc(-c3ccccc3)nc3c2CCNC3)CCO1 (stereo not drawn) | 29.38%
O=C(O)C(F)(F)F.c1cc(-c2ccc3c(c2)CCC32CCN(c3nncs3)CC2)ccn1 | -8.736%
CCN1CCN(CCNC(=O)c2ccn(-c3ccc(F)cc3)n2)CC1 | -13.99%
COCCN1CCC(NCc2ccc(Cl)cc2)C1 (stereo not drawn) | 20.83%
Cc1csc(CN(C)c2cc(C)nc3c(C)c(C)nn23)n1 | 58.07% and 65.34%
CC(Nc1ncnc2c1NC(=O)CN2)c1ccc2c(c1)OCO2 (stereo not drawn) | 17.54%
Cc1ccc(-c2n[nH]cc2CNCC2CCN(CC(F)(F)F)C2)o1.Cl (stereo not drawn) | 17.92% and 9.944%

Repeated from the top, 3 entries:

structure	effect
COc1cccc(CNC(C)Cn2cccn2)c1OC.Cl (stereo not drawn)	33.73%
O=C(NCc1csc(Br)c1)c1cnccn1	35.34%
NC(=O)CSCC(=O)N1CCc2cc(Cl)cc(Cl)c2C1	45.49%

The values are deposited in ChEMBL (CHEMBL3988442, “University of Dundee, Small-Polar-MMV Screening Library” (2021)).